Results of unrelated studies side by side (data: NIAID ChemDB).

Common to all: tests on isolated targets; species: HIV-1; target: Integrase; read-out: IC50

Two numbers with a dash give a range or band.

SMILES	strain or isolate	changes	method	result
O=C(O)/C(O)=C/C(=O)N(Cc1ccc(F)cc1)c1ccc(F)cc1			strand transfer	<70 µM
CNC(=O)c1cn2c(c1O)C(=O)N(Cc1ccc(Cl)cc1)CC2			strand transfer	<1.5 µM
Cc1cc(=O)n(-c2ccccc2)n1C(=O)/C=C/c1ccco1			3′ processing	520 µM
C=C(C=O)[C@@H]1C[C@@]2(C)C(=CC1=O)[C@H](OC(=O)/C(C)=C\C(C)CCCC)CC[C@@H]2C(=O)O			disintegration	15 µM
Cn1ccn2c(=O)c(O)c(C(O)NCc3ccc(F)cc3)nc12		Wild type	strand transfer	0.1–1 µM
N#C/C(=C\c1ccc(O)c(O)c1)C(=O)NCC1CCCC(CNC(=O)/C(C#N)=C/c2ccc(O)c(O)c2)C1			strand transfer	5–10 µM
O=C(/C=C(\O)c1ncccc1C(=O)O)c1ccc(Cc2ccc(F)cc2)o1			strand transfer	>10 µg/mL
CC(C)[C@H](NC(=O)OCc1ccccc1)C(=O)N[C@@H](Cc1ccc(OCc2ccccc2)cc1)C(=O)C(F)(F)C(=O)N1CCc2ccccc2C1			3′ processing	22 µM
CC(C)c1c(Cc2ccccc2)n(COCc2ccccc2)c(=O)n(N)c1=O			3′ processing	>111 µM
CNC(=O)c1cn2c(c1O)C(=O)N(Cc1ccc(Cl)c(Cl)c1)CC2			strand transfer	<1.5 µM
COC(=O)CCC/C=C(/c1ccc(OC)c(C(C)=O)c1)c1ccc(OC)c(C(=O)OC)c1			3′ processing	2.1 µM
CCOC(=O)c1cn2c(c1O)C(=O)N(Cc1ccc(F)cc1)CC2			strand transfer	<0.7 µM
O=C(O)/C(O)=C/C(=O)N(Cc1ccc(F)cc1)c1ccc(F)cc1OCc1ccc(F)cc1			strand transfer	<70 µM
CNC(=O)c1[nH]c(=O)c(O)c2c1CCN(Cc1ccc(F)cc1)C2=O			strand transfer	<1 µM
O=C1c2c(O)c(=O)n([C@@H]3CCCC[C@@H]3O)c(=O)n2CCN1Cc1ccc(F)cc1			strand transfer	<10 µM
COC(=O)c1noc2c1CCc1ccccc1-2			strand transfer	>1000 µM
Cc1cc(=O)n(-c2ccccc2)n1C(=O)c1ccco1			3′ processing	450 µM
O=C(NCCO)c1c(O)c2ncc(Cc3ccc(F)cc3)cc2n(-c2ccc(F)cc2)c1=O			strand transfer	0.0074 µM
CC(C)(C)C(=O)c1cn2ccn(Cc3ccc(F)cc3)c(=O)c2c(O)c1=O			ELISA	<0.01 µM
CN(C)C(=O)c1cc(F)ccc1CNC(=O)c1nc(N2CCCCS2(=O)=O)c2cccnc2c1O			strand transfer	<0.5 µM
CC(C)[C@H](NC(=O)OCc1ccccc1)C(=O)N[C@@H](Cc1ccccc1)C(=O)C(F)(F)C(=O)N1CCc2ccccc2C1			3′ processing	500 µM
c1cnc2c(CSc3nc4ccccc4s3)cccc2c1			strand transfer	>1000 µM
CN(Cc1ccc(OCc2ccccc2)cc1)C(=O)/C=C(\O)C(=O)O			strand transfer	>70 µM
CCOC(=O)c1cn2c(c1O)C(=O)N(Cc1cccc(Cl)c1)CC2			strand transfer	<0.7 µM
Cn1ccn2c(=O)c(O)c(-c3ncc(Cc4ccc(F)c(Cl)c4)s3)nc12		E92Q/N155H	strand transfer	0.1–1 µM
N#C/C(=C\c1ccc(O)c(O)c1)C(=O)NCCCNC(=O)/C(C#N)=C/c1ccc(O)c(O)c1			strand transfer	0.8 µM
CC(C)(C)c1nc(C(=O)NCc2ccc(F)cc2)c(O)c(=O)n1CCCNS(=O)(=O)c1ccccc1			3′ processing	>20 µM
Cc1cc(=O)n(-c2ccc(Br)cc2F)n1C(=O)c1ccco1			3′ processing	>1000 µM
O=C1c2c(O)c(=O)ccn2CCN1Cc1cccc(Cl)c1F			ELISA	0.01–0.1 µM
CN(C)CCCNC(=O)c1ccc2nc(-c3ccc4nc(-c5ccc(OCCOCCOCCOc6ccc(-c7nc8ccc(-c9nc%10ccc(C(=O)NCCCN(C)C)cc%10[nH]9)cc8[nH]7)cc6)cc5)[nH]c4c3)[nH]c2c1			3′ processing	14 µM
O=C(NCc1ccc(F)cc1)C1C(=O)N(O)C(=O)c2ccccc21				0.056 µM
Cn1ccn2c(=O)c(O)c(-c3ncc(Cc4ccc(Cl)cc4)s3)nc12		E92Q/N155H	strand transfer	0.1–1 µM
CCn1cc(-c2cc(C(=O)O)no2)c2ccccc21			strand transfer	498 µM
[N-]=[N+]=NCc1ccc(C(=O)c2cccc(/C(O)=C/C(=O)C(=O)O)c2)cc1			3′ processing	>333 µM
O/C(=C\c1cc(CCc2ccccc2)ncn1)c1nncs1			strand transfer	0.6 µg/mL
O=C(NC1CCC1)c1[nH]c(=O)c(O)c2c1CCN(Cc1ccc(F)cc1)C2=O			strand transfer	<1 µM
N#Cc1ccccc1-c1ccc(CS(=O)(=O)c2nc3ccccc3s2)cc1			3′ processing	700 µM
Cc1ccc(-c2nc(SCc3ccccc3)[nH]c(=O)c2C#N)cc1			strand transfer	100 µM
COC(=O)Nc1cn2ccn(Cc3cccc(Cl)c3)c(=O)c2c(O)c1=O			ELISA	<0.01 µM
N#Cc1c(-c2cccc(Cl)c2)nc(SCc2ccc([N+](=O)[O-])cc2)[nH]c1=O			strand transfer	100 µM
N#C/C(=C\c1ccc(O)c(O)c1)C(=O)NC1CCC(CC2CCC(NC(=O)/C(C#N)=C/c3ccc(O)c(O)c3)CC2)CC1			disintegration	>12 µM
O=C(O)c1cn2c(c1O)C(=O)N(Cc1ccc(F)cc1)CC2			strand transfer	<0.7 µM
COC(=O)CCC/C=C(/c1ccc(OC)c(C(C)=O)c1)c1cnccn1			3′ processing	1.3 µM
N#Cc1c(-c2cccc(Cl)c2)nc(SCc2ccccc2)[nH]c1=O			strand transfer	17 µM
Brc1ccc(CSc2nc3ccccc3s2)cc1			3′ processing	>1000 µM
CN(C(=O)c1cn2ccn(Cc3cccc(Cl)c3)c(=O)c2c(O)c1=O)S(C)(=O)=O			ELISA	<0.01 µM
CNC(=O)c1cc(F)ccc1CNC(=O)c1nc(N2CCCN(C)S2(=O)=O)c2cccnc2c1O			strand transfer	<0.5 µM
O=C1NC(=O)C(c2ccc(C(=O)O)o2)=C1c1ccc(C(=O)O)o1			3′ processing	116 µM
CC(=O)N1CCOCC1Cn1c(=O)c(O)c2n(c1=O)CCN(Cc1ccc(F)cc1)C2=O			strand transfer	<10 µM
CCCC(C(=O)O)c1c(-c2ccccc2)c2cc(Cl)ccc2n(CCC)c1=O			strand transfer	>250 µM
CN1CCn2c3c(c(O)c2C1=O)C(=O)N(Cc1ccc(F)cc1)CC3			strand transfer	<1 µM
COc1cccc2c1c(/C(O)=C1\COC(=O)C1=O)cn2Cc1ccc(F)cc1	IIIB		ELISA	>100 µM
O=C(O)/C(O)=C/c1cccc(OCc2ccccc2)c1			strand transfer	>100 µg/mL
CCOC(=O)c1cn2c(c1O)C(=O)N(Cc1ccc(F)c(F)c1)CC2			strand transfer	<1.5 µM
Cn1ccn2c(=O)c(O)c(-c3ncc(Cc4ccc(Cl)c(Cl)c4)s3)nc12		G140S/Q148H	strand transfer	0.1–1 µM
CCNC(=O)c1cc(F)ccc1CNC(=O)c1nc(N2CCCCS2(=O)=O)c2cccnc2c1O			strand transfer	<0.5 µM
CN1C(=O)[C@@H](c2cc(Cl)c(O)c(Cl)c2)NC(=O)[C@@H]2NC(=O)[C@@H](c3cc(Cl)c(O)c(Cl)c3)NC(=O)[C@H](N)Cc3c[nH]c4c(cccc34)-c3cc2cc(c3O)Oc2ccc(cc2)C[C@H]1C(=O)O			strand transfer	3–10 µM
Cn1cc(-c2cc(C(=O)O)no2)c2ccccc21			strand transfer	475 µM
Cn1cc2c(c(O)c1=O)C(=O)N(Cc1cccc(C(F)(F)F)c1)CC2			ELISA	0.1–1 µM
N#Cc1c(-c2ccccc2)nc(SCc2ccccc2)[nH]c1=O			strand transfer	100 µM
O=C1c2c(O)c(=O)n(CC(F)(F)F)c(=O)n2CCN1Cc1ccc(F)cc1			strand transfer	<10 µM
O=C1c2c(O)c(=O)cc(CCO)n2CCN1Cc1ccc(Cl)c(Cl)c1			ELISA	0.01–0.1 µM
O=C(O)/C(O)=C/C(=O)N(CCCc1ccccc1)c1ccc(Cl)cc1			strand transfer	<70 µM
CCCNS(=O)(=O)c1cccc2cnccc12			3′ processing	863 µM
COc1ccc(-c2cn3ccn(Cc4cccc(Cl)c4)c(=O)c3c(O)c2=O)cc1			ELISA	<0.01 µM
CC(C)(C)c1nc(C(=O)NCc2ccc(F)cc2)c(O)c(=O)n1CCCNS(=O)(=O)C1CC1			3′ processing	>20 µM
O=C(O)c1ccccc1-c1ccc(CN2C(=O)C(=O)c3ccccc32)cc1			3′ processing	900 µM
CC(C)Cc1cn(Cc2ccc(Cl)c(Cl)c2)c(=O)c2c(O)c(=O)ccn12			ELISA	<0.01 µM
N#C/C(=C\c1cc(O)c(O)c([N+](=O)[O-])c1)C(=O)NCCCNC(=O)/C(C#N)=C/c1cc(O)c(O)c([N+](=O)[O-])c1			disintegration	>12 µM
CC(C)Cn1c(C(=O)N(C)C)c2c(c(O)c1=O)C(=O)N(Cc1ccc(F)c(Cl)c1)CC2			strand transfer	<1 µM
Cn1cc(C(=O)O)c(=O)c2cc(N)c(N3CCN(c4ccccn4)CC3)cc21			3′ processing	60 µM
CCN(CC)C(=O)c1c2c(c(O)c(=O)n1C)C(=O)N(Cc1ccc(F)c(Cl)c1)CC2			strand transfer	<1 µM
Cc1ccc(C(=O)c2cccc(/C(O)=C/C(=O)C(=O)O)c2)cc1			strand transfer	14 µM
CNC(=O)c1cc(F)ccc1CNC(=O)c1nc(N2CCCCS2(=O)=O)c2cccnc2c1O			strand transfer	<0.5 µM
O=[N+]([O-])c1ccc(CS(=O)(=O)c2nc3ccccc3s2)cc1			strand transfer	>1000 µM
Cc1cc2c(c(O)c1O)C(=O)N(Cc1ccc(F)c(Cl)c1)C2			3′ processing	111 µM
O=C(O)c1ccc(C2=C(c3ccc(C(=O)O)o3)C(=O)N(c3ccc(O)cc3)C2=O)o1			strand transfer	3 µM
Nc1ncnc2c1ncn2[C@@H]1CO[C@H](COP(=O)(O)O[C@H]2C[C@H](n3cnc4c(N)ncnc43)O[C@@H]2COP(=O)(O)O)[C@H]1O			3′ processing	>1000 µM

Repeating the final 8 entries:

| SMILES | strain or isolate | changes | method | result |
|---|---|---|---|---|
| Cn1cc(C(=O)O)c(=O)c2cc(N)c(N3CCN(c4ccccn4)CC3)cc21 |  |  | 3′ processing | 60 µM |
| CCN(CC)C(=O)c1c2c(c(O)c(=O)n1C)C(=O)N(Cc1ccc(F)c(Cl)c1)CC2 |  |  | strand transfer | <1 µM |
| Cc1ccc(C(=O)c2cccc(/C(O)=C/C(=O)C(=O)O)c2)cc1 |  |  | strand transfer | 14 µM |
| CNC(=O)c1cc(F)ccc1CNC(=O)c1nc(N2CCCCS2(=O)=O)c2cccnc2c1O |  |  | strand transfer | <0.5 µM |
| O=[N+]([O-])c1ccc(CS(=O)(=O)c2nc3ccccc3s2)cc1 |  |  | strand transfer | >1000 µM |
| Cc1cc2c(c(O)c1O)C(=O)N(Cc1ccc(F)c(Cl)c1)C2 |  |  | 3′ processing | 111 µM |
| O=C(O)c1ccc(C2=C(c3ccc(C(=O)O)o3)C(=O)N(c3ccc(O)cc3)C2=O)o1 |  |  | strand transfer | 3 µM |
| Nc1ncnc2c1ncn2[C@@H]1CO[C@H](COP(=O)(O)O[C@H]2C[C@H](n3cnc4c(N)ncnc43)O[C@@H]2COP(=O)(O)O)[C@H]1O |  |  | 3′ processing | >1000 µM |

Conditions beyond the fields shown may differ between rows. Blank or dashed fields: not listed here. ICn is the concentration giving n% inhibition.